Data as given in PubChem BioAssay AID624099 (ICCB-Longwood, 2012).

Screen: 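Host factors E2 relies on to silence an HPV18 LCR reporter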 (primary screen)
Cells: human C33A cervical carcinoma cells (HPV-negative) stably expressing BPV1 E2 and an HPV18 LCR luciferase reporter
Knock-down reagent: siRNA pool against human genes, 40 nM
Timing: 72 h
Measurement: 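Per-well luciferase luminescence, z-scored on each plate against the plate mean and SD with control wells left out, then averaged across three replicate plates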
Direction: mean z-score and z-score: higher = stronger reporter signal, weaker E2 silencing
Rule for the call: 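Mean z ≥ 2 together with z ≥ 2 in two or more of the three replicates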
In all, the deposit lists about 21,000 reagents; below is a random part of them. 497 of them (2.4%) were called active. 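Higher z means weaker E2 silencing; only reporter increases were scored, and knock-downs that hurt cell survival may mask genuine repressor factors.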 No sequences are given here.

Gene	PubChem SID	mean z-score	z-score, replicate A	z-score, replicate B	z-score, replicate C	Outcome
ARSJ (GeneID 79642)	SID134313885	0.7	0.77	1.05	0.28	inactive
FAM76B (GeneID 143684)	SID134319749	1.63	1.13	1.18	2.56	inactive
ITGA2 (GeneID 3673)	SID134310523	0.09	0	0	0.28	inactive
PEX5L (GeneID 51555)	SID134324737	0.7	0.99	0.37	0.73	inactive
FETUB (GeneID 26998)	SID134316778	-0.19	-0.58	-0.32	0.33	inactive
EPHA8 (GeneID 2046)	SID56478500	0.06	0.31	0.08	-0.21	inactive
ZMYND19 (GeneID 116225)	SID134324987	0.78	0.75	0.87	0.71	inactive
CASZ1 (GeneID 54897)	SID134324409	0.08	0.36	-0.15	0.03	inactive
CASZ1 (GeneID 54897)	SID134325104	0.95	0.94	1.19	0.73	inactive
LOC400452 (retired record) (GeneID 400452)	SID134328591	0.77	0.58	0.76	0.97	inactive
FAM221A (GeneID 340277)	SID134326313	0.01	-0.4	0.15	0.27	inactive
SLC43A1 (GeneID 8501)	SID134312624	1.65	1.43	1.84	1.68	inactive
TXLNB (GeneID 167838)	SID134326144	-0.67	-0.47	-0.47	-1.07	inactive
SEPHS1 (GeneID 22929)	SID56479196	0.39	0.28	0.4	0.49	inactive
SLC35F4 (GeneID 341880)	SID134328489	0.1	0.24	-0.09	0.14	inactive
TAF6 (GeneID 6878)	SID134316439	-1.05	-1.07	-1	-1.07	inactive
FEN1 (GeneID 2237)	SID134314917	-0.03	0.03	0.1	-0.23	inactive
PAGE2 (GeneID 203569)	SID134329515	-0.38	-0.65	-0.16	-0.32	inactive
SETP20 (GeneID 389217)	SID134327414	-0.72	-0.5	-1.29	-0.37	inactive
MICU3 (GeneID 286097)	SID134322472	-0.4	-0.33	-0.27	-0.61	inactive
DUSP9 (GeneID 1852)	SID134309957	0.27	0.24	0.34	0.24	inactive
CRIP2 (GeneID 1397)	SID134310775	-1.13	-1.02	-1.34	-1.02	inactive
ANKRD26 (GeneID 22852)	SID134324150	-0.32	-0.39	-0.16	-0.39	inactive
ISM1 (GeneID 140862)	SID134326012	-0.27	-0.22	-0.66	0.08	inactive
RNASEH2C (GeneID 84153)	SID134318901	-0.29	-0.18	-0.09	-0.58	inactive
HUNK (GeneID 30811)	SID56478785	-0.3	-0.16	-0.77	0.03	inactive
UXT (GeneID 8409)	SID134310486	0.67	0.55	1	0.47	inactive
DOLK (GeneID 22845)	SID134311728	-0.19	-0.31	-0.21	-0.04	inactive
EEF1A1P16 (GeneID 387845)	SID134328384	1.08	1.37	1.04	0.85	inactive
APOBEC3C (GeneID 27350)	SID134317922	0.66	0.62	0.74	0.63	inactive
ZFC3H1 (GeneID 196441)	SID134324475	-0.98	-0.77	-1.05	-1.13	inactive
TRMT2B (GeneID 79979)	SID134322549	0.61	0.84	0.5	0.5	inactive
LEAP2 (GeneID 116842)	SID134319229	-0.06	-0.28	0.3	-0.19	inactive
LOC388922 (retired record) (GeneID 388922)	SID134327138	0.8	0.66	0.8	0.94	inactive
RBBP8 (GeneID 5932)	SID134315719	0.82	1.01	0.76	0.7	inactive
CNNM3 (GeneID 26505)	SID134323226	2.26	2.11	2.52	2.16	active
LOC285097 (GeneID 285097)	SID134321580	-0.22	-0.61	0.13	-0.18	inactive
RRP7BP (GeneID 91695)	SID134320821	-0.27	-0.02	-0.64	-0.16	inactive
PACSIN1 (GeneID 29993)	SID56479194	-0.57	-0.49	-0.65	-0.58	inactive
CDH24 (GeneID 64403)	SID134322811	-0.63	-0.81	-0.48	-0.59	inactive
B3GNT3 (GeneID 10331)	SID134313871	-0.59	-0.33	-0.57	-0.85	inactive
P4HB (GeneID 5034)	SID134310027	-0.31	-0.45	0.22	-0.7	inactive
SF3B5 (GeneID 83443)	SID134318812	-2.07	-2.31	-1.98	-1.93	inactive
WDR41 (GeneID 55255)	SID134324111	-0.42	-0.21	-0.38	-0.69	inactive
FGL2 (GeneID 10875)	SID134312841	0.15	0.52	-0.12	0.05	inactive
MACF1 (GeneID 23499)	SID134317836	2.98	2.44	2.86	3.64	active
LOC391360 (retired record) (GeneID 391360)	SID134327195	0.17	0.17	0.33	0	inactive
KCNH8 (GeneID 131096)	SID134311656	2.17	2.54	2.06	1.91	active
TMEM102 (GeneID 284114)	SID134322118	-0.84	-0.82	-0.75	-0.94	inactive
SERPINI2 (GeneID 5276)	SID134316530	-0.23	-0.05	-0.64	-0.01	inactive
CTNS (GeneID 1497)	SID134323672	-0.14	-0.26	-0.31	0.15	inactive
LOC390812 (retired record) (GeneID 390812)	SID134328750	0.88	1.19	0.72	0.73	inactive
CERS5 (GeneID 91012)	SID134320088	0.44	0.23	0.58	0.5	inactive
RTP2 (GeneID 344892)	SID134325799	0.58	0.62	0.52	0.58	inactive
TMEM87B (GeneID 84910)	SID134319075	0.48	0.43	0.52	0.48	inactive
NINJ2 (GeneID 4815)	SID134324479	0.84	0.6	1.13	0.8	inactive
CNDP2 (GeneID 55748)	SID134311240	-0.3	-0.06	-0.56	-0.28	inactive

Part of the list above in another layout:
{"Gene":"DUSP9 (GeneID 1852)","PubChem SID":"SID134309957","mean z-score":0.27,"z-score, replicate A":0.24,"z-score, replicate B":0.34,"z-score, replicate C":0.24,"Outcome":"inactive"}
{"Gene":"CRIP2 (GeneID 1397)","PubChem SID":"SID134310775","mean z-score":-1.13,"z-score, replicate A":-1.02,"z-score, replicate B":-1.34,"z-score, replicate C":-1.02,"Outcome":"inactive"}
{"Gene":"ANKRD26 (GeneID 22852)","PubChem SID":"SID134324150","mean z-score":-0.32,"z-score, replicate A":-0.39,"z-score, replicate B":-0.16,"z-score, replicate C":-0.39,"Outcome":"inactive"}
{"Gene":"ISM1 (GeneID 140862)","PubChem SID":"SID134326012","mean z-score":-0.27,"z-score, replicate A":-0.22,"z-score, replicate B":-0.66,"z-score, replicate C":0.08,"Outcome":"inactive"}
{"Gene":"RNASEH2C (GeneID 84153)","PubChem SID":"SID134318901","mean z-score":-0.29,"z-score, replicate A":-0.18,"z-score, replicate B":-0.09,"z-score, replicate C":-0.58,"Outcome":"inactive"}
